Source: patent US20020150975A1 (priority 2000, published 2002)

Amino acid sequences for entries named in this document (tags omitted). A change or cut given only in a name is not applied to a line headed by its entry.
UniProt Q05941: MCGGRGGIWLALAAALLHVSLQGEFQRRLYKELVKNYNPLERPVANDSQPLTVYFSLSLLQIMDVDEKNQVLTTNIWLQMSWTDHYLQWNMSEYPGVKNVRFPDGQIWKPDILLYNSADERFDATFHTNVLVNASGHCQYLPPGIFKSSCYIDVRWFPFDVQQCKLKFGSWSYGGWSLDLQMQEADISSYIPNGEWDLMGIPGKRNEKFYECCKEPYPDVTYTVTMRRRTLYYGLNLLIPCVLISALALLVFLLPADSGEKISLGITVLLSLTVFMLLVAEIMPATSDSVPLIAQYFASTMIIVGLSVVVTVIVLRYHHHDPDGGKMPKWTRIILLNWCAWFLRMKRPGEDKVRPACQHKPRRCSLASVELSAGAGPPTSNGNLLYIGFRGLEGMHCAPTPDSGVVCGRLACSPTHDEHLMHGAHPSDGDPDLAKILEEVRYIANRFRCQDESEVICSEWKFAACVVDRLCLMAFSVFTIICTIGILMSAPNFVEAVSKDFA

Molecular target: GST-α7-(1-209) fusion protein (Rattus norvegicus, UniProt Q05941)
Test: Displacement of [125I]α-bungarotoxin binding from GST-α7-(1-209) fusion protein
Details: read-out: IC50 of displacement of [125I]α-Bgt; GST-α7-(1-209) 17 μg/ml, pH 8.0, room temperature, 1 h preincubation

Substance alpha-cobratoxin has a pIC50 of 5.04.

pIC50: −log10 of the molar value.
